Measured values from several laboratories, pooled; numbers as filed in NIAID ChemDB.

All rows: whole-cell or culture tests; organism: HIV-1

Blank or dashed fields: not listed here. ECn is the concentration giving n% inhibition of infection, replication or growth. Neighbouring rows are from separate reports.

{"SMILES": "C[C@@H](Cn1cnc2c(N)nc(N)nc21)OCP(=O)(O)O", "cell line": "MT-4", "measure": "EC50", "strain or isolate": "IIIB", "value": "7.4 µM"}
{"SMILES": "Cc1ccnc2c1NC(=O)c1cccnc1N2C1CC1", "read by": "cytopathic effect / MTT", "cell line": "MT-2", "measure": "EC50", "strain or isolate": "LAI", "value": "0.2 µM"}
{"SMILES": "O=C1N(Cc2ccc(CO)cc2)[C@H](Cc2ccccc2)[C@H](O)[C@@H](O)[C@@H](Cc2ccccc2)N1Cc1ccc(CO)cc1", "read by": "virus yield", "cell line": "MT-2", "measure": "EC50", "strain or isolate": "IIIB", "value": "<0.11 µM"}
{"SMILES": "COC(=O)c1cc2c(c(OC)c1-c1ccc(N(C)C)cc1)OCO2", "read by": "antigen", "mutations": "Y181C", "cell line": "C8166", "measure": "EC50", "strain or isolate": "NL4-3", "value": "23.7 µM"}
{"SMILES": "CCC[C@@]1(CCc2ccccc2)CC(O)=C([C@H](CC)c2cccc(NS(=O)(=O)c3ccc(C(F)(F)F)cn3)c2)C(=O)O1", "read by": "p24", "cell line": "PBMC", "measure": "EC50", "strain or isolate": "Isolate N. Amer 5", "value": "<0.17 µM"}
{"SMILES": "N#Cc1ccc(-n2ccc(CN3CCN(C[C@@H](O)C[C@@H](Cc4cccnc4)C(=O)N[C@H]4c5ccccc5OC[C@H]4O)[C@H](C(=O)NCC(F)(F)F)C3)c2)cc1", "read by": "p24", "mutations": "PR-L10I M46I I54V Q58E L63P I64V V77I V82F I84V L90M I93L", "cell line": "MT-4", "measure": "EC50", "strain or isolate": "K-60C Clinical isolate", "value": "<0.125 µM"}
{"SMILES": "C[C@H](Cn1cnc2c(N)nc(N)nc21)OCP(=O)(O)O", "read by": "p24 / syncytia", "cell line": "PBL", "measure": "EC50", "strain or isolate": "IIIB", "value": "0.15 µM"}
{"SMILES": "O=C(N[C@H]1c2ccccc2OC[C@H]1O)[C@H](Cc1cccnc1)C[C@H](O)CN1CCN(Cc2ccn(-c3ccc(C(F)(F)F)cc3)c2)C[C@H]1C(=O)NCC(F)(F)F", "read by": "p24", "cell line": "MT-4", "measure": "EC50", "strain or isolate": "NL4-3 WT", "value": "<0.015 µM"}
{"SMILES": "Cc1cn([C@H]2C=C[C@@H](CO)O2)c(=O)[nH]c1=O", "read by": "cytopathic effect / MTT", "cell line": "MT-4", "measure": "EC50", "strain or isolate": "IIIB WT", "value": "0.26 µM"}
{"SMILES": "Nc1ccn([C@H]2S[C@@H](CO)C=C2F)c(=O)n1", "cell line": "PBMC", "measure": "EC50", "strain or isolate": "xxBRU", "value": "<1.4 µM"}
{"SMILES": "Cc1cn([C@H]2C=C[C@@H](COP(=O)(OCc3ccccc3)OCc3ccccc3)O2)c(=O)[nH]c1=O", "cell line": "CEM + CEM TK-", "measure": "EC50", "value": "5.5 µM"}
{"SMILES": "Nc1ccn([C@@H]2S[C@H](CO)C=C2F)c(=O)n1", "cell line": "PBMC", "measure": "EC50", "strain or isolate": "xxBRU", "value": "<5 µM"}
{"SMILES": "CC(C)CN(C[C@@H](O)[C@H](Cc1ccccc1)NC(=O)O[C@H]1CCOC1)S(=O)(=O)c1ccc(N)cc1", "read by": "cytopathic effect / MTT", "cell line": "MT-4", "measure": "EC50", "strain or isolate": "NL4-3 WT", "value": "0.031 µM"}
{"SMILES": "O=c1[nH]cnc2c1ncn2[C@H]1CC[C@@H](CO)O1", "read by": "p24", "cell line": "MT-4", "measure": "EC95", "strain or isolate": "IIIB", "value": "6.25 µM"}
{"SMILES": "C#C[C@@]1(CO)C=C[C@H](n2cc(C)c(=O)[nH]c2=O)O1", "read by": "β-galactosidase", "mutations": "RT-Y181C", "cell line": "MAGI (CCR5) + MAGI", "measure": "EC50", "strain or isolate": "HXB2", "value": "1.5 µM"}
{"SMILES": "Cc1cn([C@H]2C=C[C@@H](CO)O2)c(=O)[nH]c1=O", "read by": "cytopathic effect", "cell line": "CEM + CEM-SS", "measure": "EC50", "value": "0.049 µM"}
{"SMILES": "Cc1cn([C@H]2C[C@H](N=[N+]=[N-])[C@@H](CO)O2)c(=O)[nH]c1=O", "read by": "p24", "mutations": "RT-M41L D67N K70R L210W T215Y", "cell line": "PBMC", "measure": "EC50", "strain or isolate": "G704-2 Clinical isolate ZDV-resistant", "value": "1.8 µM"}
{"SMILES": "Nc1nc2c(ncn2[C@H]2C=C[C@@H](CO)O2)c(=O)[nH]1", "read by": "cytopathic effect / MTT", "cell line": "MT-2", "measure": "EC50", "strain or isolate": "IIIB", "value": "6.3 µM"}
{"SMILES": "O=C(O)P(=O)(O)O", "read by": "cytopathic effect / MTT", "mutations": "RT-H208Y", "cell line": "MT-2", "measure": "EC50", "strain or isolate": "LAI viral clone (RT-H208Y)", "value": "68 µM"}
{"SMILES": "Cc1ccnc2c1NC(=O)c1cccnc1N2C1CC1", "read by": "p24 / ELISA", "mutations": "K103N", "cell line": "C8166", "measure": "EC50", "strain or isolate": "NL4-3", "value": "1.89 µM"}
{"SMILES": "CC(C)[C@H](NC(=O)c1ccc2ccccc2n1)C(=O)N[C@@H](Cc1ccccc1)[C@H](O)CN1CC[C@@H](OCc2ccncc2)C[C@H]1C(=O)NC(C)(C)C", "read by": "p24 / ELISA / antigen", "cell line": "C8166", "measure": "EC50", "strain or isolate": "AZTR", "value": "0.015 µM"}
{"SMILES": "CC(C)[C@H](NC(=O)N(C)Cc1ccccn1)C(=O)N[C@@H](Cc1ccccc1)[C@H](O)[C@H](O)[C@H](Cc1ccccc1)NC(=O)[C@@H](NC(=O)N(C)Cc1ccccn1)C(C)C", "read by": "cytopathic effect / trypan blue", "cell line": "ATH8", "measure": "EC90", "strain or isolate": "IIIB", "value": "4 µM"}
{"SMILES": "Nc1nc(NC2CC2)c2ncn([C@H]3C=C[C@@H](CO)O3)c2n1", "read by": "cytopathic effect / MTT", "cell line": "PBMC", "measure": "EC90", "strain or isolate": "LAI", "value": "17 µM"}
{"SMILES": "CC(C)Nc1cccnc1N1CCN(C(=O)c2cc3cc(NS(C)(=O)=O)ccc3[nH]2)CC1", "read by": "p24", "cell line": "PBMC", "measure": "EC50", "strain or isolate": "458 clinical isolates delavirdine-resistant", "value": "<7.7 µM"}
{"SMILES": "CCc1cc(NCc2nc3ccccc3o2)c(=O)[nH]c1C", "read by": "p24", "cell line": "MT-4", "measure": "EC95", "strain or isolate": "A17", "value": "100 µM"}
{"SMILES": "Cc1cn([C@H]2C[C@H](N=[N+]=[N-])[C@@H](COP(=O)(O)OCc3ccccc3)O2)c(=O)[nH]c1=O", "read by": "cytopathic effect", "cell line": "CEM + CEM TK-", "measure": "EC50", "value": ">100 µM"}
{"SMILES": "COC(=O)[C@H](C)NP(=O)(OC[C@@H]1C=C[C@H](n2cc(C)c(=O)[nH]c2=O)O1)Oc1ccc(Br)cc1", "read by": "p24", "mutations": "RT-M41L F116S T215Y", "cell line": "PBMC", "measure": "EC50", "strain or isolate": "X267-5 Clinical isolate ZDV-resistant", "value": "0.03 µM"}
{"SMILES": "Cc1cn([C@H]2C[C@H](N=[N+]=[N-])[C@@H](CO)O2)c(=O)[nH]c1=O", "cell line": "CEM + CEM TK-", "measure": "EC50", "value": ">100 µM"}
{"SMILES": "Cc1cn([C@H]2C[C@H](N=[N+]=[N-])[C@@H](CO)O2)c(=O)[nH]c1=O", "read by": "p24", "cell line": "MT-4", "measure": "EC50", "strain or isolate": "IIIB", "value": "<0.025 µM"}
{"SMILES": "O=C(N[C@H]1c2ccccc2OC[C@H]1O)[C@H](Cc1cccnc1)C[C@H](O)CN1CCN(Cc2ccn(-c3ccc(Cl)c(Cl)c3)c2)C[C@H]1C(=O)NCC(F)(F)F", "read by": "p24", "mutations": "PR-L10I N37S R41K M46I I54V I62V L63P A71V V77I V82A L90M I93L", "cell line": "MT-4", "measure": "EC95", "strain or isolate": "Q-60C Clinical isolate", "value": "≤0.008 µM"}
{"SMILES": "Cc1ccnc2c1NC(=O)c1cccnc1N2C1CC1", "read by": "β-galactosidase", "mutations": "RT-G190E", "cell line": "MAGI", "measure": "EC50", "strain or isolate": "NNRTI-resistant (RT G190E)", "value": "0.095 µM"}
{"SMILES": "Cc1c(O)cccc1C(=O)N[C@@H](CSc1ccccc1)[C@H](O)CN1C[C@H]2CCCC[C@H]2C[C@H]1C(=O)NC(C)(C)C", "read by": "cytopathic effect / MTT", "cell line": "MT-4", "measure": "EC50", "strain or isolate": "NL4-3 WT", "value": "0.014 µM"}
{"SMILES": "O=C(N[C@H]1c2ccccc2OC[C@H]1O)[C@H](Cc1cccnc1)C[C@H](O)CN1CCN(Cc2ccn(-c3cccc(F)c3)c2)C[C@H]1C(=O)NCC(F)(F)F", "read by": "p24", "cell line": "MT-4", "measure": "EC50", "strain or isolate": "NL4-3 WT", "value": "<0.015 µM"}

For reference, 3 entries again:

SMILES,read by,mutations,cell line,measure,strain or isolate,value
Nc1ccn([C@H]2S[C@@H](CO)C=C2F)c(=O)n1,-,-,PBMC,EC50,xxBRU,<1.4 µM
O=C1N(Cc2ccc(CO)cc2)[C@H](Cc2ccccc2)[C@H](O)[C@@H](O)[C@@H](Cc2ccccc2)N1Cc1ccc(CO)cc1,virus yield,-,MT-2,EC50,IIIB,<0.11 µM
Nc1nc(NC2CC2)c2ncn([C@H]3C=C[C@@H](CO)O3)c2n1,cytopathic effect / MTT,-,PBMC,EC90,LAI,17 µM